Pooled drug test results. Numbers come from NIAID ChemDB, via PubChem.

All rows: whole-cell or culture tests; agent: Mycobacterium tuberculosis

Neighbouring rows are from separate reports. Blank or dashed fields: not listed here. MIC50, MIC90 and the like: level of inhibition, or share of isolates inhibited. ECn is the concentration giving n% inhibition of infection, replication or growth. Percent inhibition refers to the dose given; in toxicity tests it is the harm to the cells. MIC bound comes from a single tested concentration.

SMILES,strain,read by,measure,dose,value
CCCCC(CC)CN1CN(CC(CC)CCCC)CC(C)(NCCNC2CCc3ccccc32)C1,-,-,MIC,-,25 µM
O=C1CC(c2ccccc2)Oc2ccc(I)cc21,H37Rv,-,inhibition,12.5 µg/mL,0%
CCOC(=O)Nc1cc(N)c([N+](=O)[O-])c(NC/C(CNc2ccc(C(=O)OCC)cc2)=N\O)n1,H37Rv,-,inhibition,12.5 µg/mL,0%
CN1CCN(C)C1=Nc1ccccc1/C=C/C=C1C(=O)N(C)C(=O)N(C)C1=O,H37Rv,BACTEC,inhibition,12.5 µg/mL,0%
CCOC(=O)Nc1cc2c(c(N)n1)N=C(c1ccccc1)[C@@H](CC)N2,H37Rv,-,EC50,-,>12.5 µg/mL
Brc1cccnc1,H37Rv,-,MIC,-,>100 µg/mL
Clc1ccc(CCNCCNCCc2ccccc2Cl)c(Cl)c1,-,-,MIC,-,50 µM
Cc1cc2c(=O)c3ccccc3[nH]c2c(C(N)=O)c1C,H37Rv,BACTEC,inhibition,12.5 µg/mL,-2%
Clc1ccc(CCNCCNCCCc2ccccc2)c(Cl)c1,-,-,MIC,-,25 µM
CCCCCCCCCCCNCCNC1CCCC1,-,-,MIC,-,50 µM
Nc1cc2oc3ccccc3c2cc1N,H37Rv,-,MIC,-,25 µg/mL
CCCCC(CC)CN1CN(CC(CC)CCCC)CC(C)(NCCNC2CCC2)C1,-,-,MIC,-,12.5 µM
CO[C@H]1/C=C/O[C@@]2(C)Oc3c(C)c(O)c4c(=O)c(c5oc6cc(N7CCN(CC(C)C)CC7)cc(=O)c6nc5c4c3=C2O)NC(=O)/C(C)=C\C=C\[C@H](C)[C@H](O)[C@@H](C)[C@@H](O)[C@@H](C)[C@H](OC(C)=O)[C@@H]1C,9 (rifampin-resistant),-,MBC,-,0.025 µg/mL
O=C(/C=C/c1ccc([O-])c(C[O-])c1)c1cccc(O)c1,-,-,EC50,-,<12.5 µg/mL
Cc1cc(Cc2ccc(N)c(C)c2)ccc1N,H37Rv,-,MIC,-,>100 µg/mL
NC1CCN(c2nc3c(cc2F)c(=O)c(C(=O)O)cn3-c2ccc(F)cc2F)C1,DRUG-SUS,-,MBC90,-,>8 µg/mL
Nc1cc(C(=O)O)ccc1SSc1ccc(C(=O)O)cc1N,H37Rv,BACTEC,MIC bound,-,>6.25 µg/mL
O=C1CSC(=S)N1,H37Rv,-,MIC,-,>100 µg/mL
CCOC(=O)Nc1cc(NCC(=O)CNc2ccc(C(=O)OCC)cc2)c([N+](=O)[O-])c(N)n1,H37Rv,-,EC50,-,>12.5 µg/mL
C[N+](C)(C)CC(=O)N/N=C(\CC1OC(=O)c2ccccc21)c1ccccc1O.[Cl-],H37Rv,BACTEC,MIC bound,-,>12.5 µg/mL
CCN(CC)Cc1c[nH]c2cc(Cl)ccc2c1=O,H37Rv,-,MIC,-,>100 µg/mL
CCCC/C(C)=N/NC(=S)SC,PAS-R,-,MIC,-,6.4 µg/mL
Fc1ccccc1CCNCCNCC(c1ccccc1)c1ccccc1,-,-,MIC,-,50 µM
O=P(Nc1ccccc1)(Nc1ccccc1)Nc1ccccc1,H37Rv,-,MIC,-,50 µg/mL
O=C1c2ccccc2C(=O)c2c1ccc1c2[nH]c2cc(Cl)c(Cl)cc21,-,resazurin,MIC bound,-,>6.25 µg/mL
CCOc1ccccc1CNCCNCCCCc1ccccc1,-,-,MIC,-,50 µM
CCCCC(CC)CN1CN(CC(CC)CCCC)CC(C)(NCCN[C@@H](COC)[C@@H](O)c2ccccc2)C1,-,-,MIC,-,25 µM
COc1ccc(N)cc1NC(=O)CC(=O)c1ccccc1OC,H37Rv,-,MIC,-,>100 µg/mL
O=C(O)c1ccc(C(=O)O)nn1,H37Rv,BACTEC,MIC bound,-,>12.5 µg/mL
CCCCC(CC)CN1CN(CC(CC)CCCC)CC(C)(NCCNCc2cc(OC)c(OC)c(OC)c2)C1,-,-,MIC,-,12.5 µM
CCOC(=O)Nc1cc(N(C)C(c2ccccc2)c2ccccc2)c([N+](=O)[O-])c(N)n1,H37Rv,-,EC50,-,>12.5 µg/mL
O=C(O)CN(CC(=O)O)CC(=O)O,H37Rv,-,MIC,-,>100 µg/mL
O=C(/C=C/c1ccncc1)c1ccco1,-,-,EC50,-,>12.5 µg/mL
Cc1ccc(N2CC(=O)N3CCCN3C(=O)C2)cc1,H37Rv,BACTEC,MIC bound,-,>12.5 µg/mL
Cc1ccc(CNCCNCc2ccc(F)cc2)cc1,-,-,MIC,-,50 µM
O=C1OC2(CCCC2)OC(=O)C1=C/C=C/c1ccc([N+](=O)[O-])o1,H37Rv,BACTEC,MIC,-,≥12.5 µg/mL
CC(Cc1ccc(Cl)cc1)NCCNCCCCc1ccccc1,-,-,MIC,-,50 µM
NC(Cc1cnc[nH]1)C(=O)NC(CO)C(=O)O,H37Rv,BACTEC,MIC bound,-,>12.8 µg/mL
COc1ccc(CNCCNCCNc2ccccc2)c(OC)c1,-,-,MIC,-,50 µM
COc1ccc(C(C)=O)cc1N,H37Rv,-,MIC,-,>100 µg/mL
Cc1ccc(NC(=O)CC/C(CC(=O)C(C)(C)C)=N\NC(=O)C[n+]2ccccc2)cc1C.[Cl-],H37Rv,BACTEC,MIC,-,≥12.5 µg/mL
CC1COc2c(N3CCN(C)CC3)c(F)cc3c(=O)c(C(=O)O)cn1c23,DRUG-SUS,-,MIC90,-,0.5 µg/mL
CN[C@@H]1[C@H](O[C@H]2[C@H](O[C@H]3[C@H](O)[C@@H](O)[C@H](N=C(N)N)[C@@H](O)[C@@H]3N=C(N)N)O[C@@H](C)[C@]2(O)C=O)O[C@@H](CO)[C@H](O)[C@H]1O,TN3432 (W),-,MIC,-,>2 µg/mL
C=CCNCCNC(C)CO,-,-,MIC,-,50 µM
O=C(O)C(=O)NCc1cnccn1,H37Rv,BACTEC,inhibition,12.5 µg/mL,-3%
C[C@H]1C[C@H](N)CN1c1cc2c(cc1F)c(=O)c(C(=O)O)cn2-c1ccc(F)cc1F,ATCC 35820,-,MBC,-,4 µg/mL
CN(C)c1ccc(-c2cccc(-c3ccc(N(C)C)cc3)n2)cc1,H37Rv,-,MIC,-,>100 µg/mL
O=C1CC(c2ccccc2)Oc2ccc(Br)cc21,H37Rv,-,inhibition,12.5 µg/mL,0%
O=[N+]([O-])c1cccs1,H37Rv,-,MIC,-,100 µg/mL
CC1CN(c2cc3c(cc2F)c(=O)c(C(=O)O)cn3-c2ccc(F)cc2F)CCN1,Drug-resistant,-,MIC90,-,2 µg/mL
NC(=O)c1cc(C(=O)c2ccccc2O)c[nH]c1=O,H37Rv,BACTEC,MIC,-,≥12.5 µg/mL
CCN(CC)c1nc(Nc2ccc(Cl)cc2)nc(N(CC)CC)n1,H37Rv,-,MIC,-,>100 µg/mL
CC(C)(CO)NCC(C)(C)NC(Cc1ccccc1Cl)c1ccccc1.Cl.Cl,H37Rv,BACTEC,MIC,-,≥12.8 µg/mL
O=C(CC(=O)c1ccccc1C(=O)c1ccccc1)Nc1ccccc1,H37Rv,-,MIC,-,100 µg/mL
O=C(/C=C/c1ccccc1)c1ccccc1O,H37Rv,-,EC50,-,<12.5 µg/mL
CC(=O)OC[C@H]1O[C@@H](NC(=S)Nc2nc(-c3ccccc3)cc(-c3cc(Cl)ccc3O)n2)[C@H](OC(C)=O)[C@@H](OC(C)=O)[C@@H]1OC(C)=O,H37Rv,resazurin,MIC bound,-,>6.25 µg/mL
O=C(c1ccc(-c2ccccc2)cc1)c1ccc(-c2ccccc2)cc1,H37Rv,-,MIC,-,100 µg/mL
Fc1ccccc1CCNCCNCCc1ccccc1F,-,-,MIC,-,25 µM
COc1cc(NC(C)=O)c([N+](=O)[O-])cc1OC,H37Rv,-,MIC,-,>100 µg/mL
C=CCSS/C=C/CS(=O)CC=C,H37Rv,-,MIC,-,12.5 µg/mL
Cc1cc(C2(c3cc(C)c(O)c(Br)c3)OS(=O)(=O)c3ccccc32)cc(Br)c1O,H37Rv,-,MIC,-,>100 µg/mL
O=C(O)c1ccc2c(c1)C(=O)CC(c1ccccc1)O2,H37Rv,-,EC50,-,>12.5 µg/mL
CO[C@H]1/C=C/O[C@@]2(C)Oc3c(C)c(O)c4c(=O)c(c5oc6cc(N7CCN(C(C)C)CC7)cc(=O)c6nc5c4c3=C2O)NC(=O)/C(C)=C\C=C\[C@H](C)[C@H](O)[C@@H](C)[C@@H](O)[C@@H](C)[C@H](OC(C)=O)[C@@H]1C,2230 (rifampin-resistant),-,MIC,-,0.2 µg/mL
NCCc1ccccc1,H37Rv,-,MIC,-,>100 µg/mL
COc1ccc2cc1Oc1cc3c(cc1OC)CC[N+](C)(C)C3Cc1ccc(cc1)Oc1c(OC)c(OC)cc3c1C(C2)[N+](C)(C)CC3.[I-].[I-],H37Rv,BACTEC,MIC,-,≥128 µg/mL
CCOc1ccc(Nc2ccc([N+](=O)[O-])cc2S(=O)(=O)[O-])cc1.[K+],H37Rv,-,MIC,-,>100 µg/mL
CC(C)=CC(O)C/C(C)=C/CC/C(C)=C/CCC1(C)C(CCCO)/C(=C(\C)C=O)CCC1(C)O,H37Rv,BACTEC,MIC,-,≥12.5 µg/mL
NCC[C@H](O)C(=O)N[C@@H]1C[C@H](N)[C@@H](O[C@H]2O[C@H](CN)[C@@H](O)[C@H](O)[C@H]2O)[C@H](O)[C@H]1O[C@H]1O[C@H](CO)[C@@H](O)[C@H](N)[C@H]1O,MDR4,broth dilution / resazurin,MIC,-,2 µg/mL
Nc1nccc(NCCCN2CCOCC2)n1,H37Rv,-,MIC,-,>100 µg/mL
CCNC(=O)OCC1=C(COC(=O)NCC)C2OC1C(C(=O)OC)=C2C(=O)OC,H37Rv,BACTEC,inhibition,12.5 µg/mL,-9%
CCCCC(CC)CN1CN(CC(CC)CCCC)CC(C)(NCCNC[C@@H]2CC[C@H]3C[C@@H]2C3(C)C)C1,-,-,MIC,-,25 µM
CCOC(=O)c1cncs1,H37Rv,-,MIC,-,>100 µg/mL
C/C(=C\COc1ccc2ccc(=O)oc2c1)C1=CC(=O)C(C)(C)O1,H37Rv,BACTEC,MIC,-,≥12.8 µg/mL
CCOC(=O)Nc1cc(N=[N+]=[N-])c2n[nH]nc2n1,H37Rv,-,EC50,-,>12.5 µg/mL

Repeating the final 7 entries:

SMILES | strain | read by | measure | dose | value
NCC[C@H](O)C(=O)N[C@@H]1C[C@H](N)[C@@H](O[C@H]2O[C@H](CN)[C@@H](O)[C@H](O)[C@H]2O)[C@H](O)[C@H]1O[C@H]1O[C@H](CO)[C@@H](O)[C@H](N)[C@H]1O | MDR4 | broth dilution / resazurin | MIC | - | 2 µg/mL
Nc1nccc(NCCCN2CCOCC2)n1 | H37Rv | - | MIC | - | >100 µg/mL
CCNC(=O)OCC1=C(COC(=O)NCC)C2OC1C(C(=O)OC)=C2C(=O)OC | H37Rv | BACTEC | inhibition | 12.5 µg/mL | -9%
CCCCC(CC)CN1CN(CC(CC)CCCC)CC(C)(NCCNC[C@@H]2CC[C@H]3C[C@@H]2C3(C)C)C1 | - | - | MIC | - | 25 µM
CCOC(=O)c1cncs1 | H37Rv | - | MIC | - | >100 µg/mL
C/C(=C\COc1ccc2ccc(=O)oc2c1)C1=CC(=O)C(C)(C)O1 | H37Rv | BACTEC | MIC | - | ≥12.8 µg/mL
CCOC(=O)Nc1cc(N=[N+]=[N-])c2n[nH]nc2n1 | H37Rv | - | EC50 | - | >12.5 µg/mL